Measurements reported in article PMC6919601, “Identification of Plasmodium dipeptidyl aminopeptidase allosteric inhibitors by high throughput screening” (PLoS ONE, 2019).

The compounds below were run on human foreskin fibroblast cells (assay: Cytotoxicity assay, CellTiter-Glo). Conditions: cytotoxicity EC50 divided by P. falciparum antiparasitic EC50.
For COc1cc(/C=C2/NC(=O)N(Cc3ccccc3F)C2=O)cc(Br)c1O [SMDC103222, COc1cc(\C=C/2\NC(=O)N(Cc3ccccc3F)C2=O)cc(Br)c1O], the “S.I. (specificity index)” value was 17.
CC(Oc1cccc(Cl)c1)C(=O)Nc1sc2c(c1C(N)=O)CCCCC2 (stereo not drawn) [SMDC106517, CC(Oc1cccc(Cl)c1)C(=O)Nc2sc3CCCCCc3c2C(=O)N] was tested, and the “S.I. (specificity index)” value was 11.
For CCc1nccn1C(=O)c1cnn2c(C(F)F)cc(-c3ccccc3)nc12 [SMDC158691, CCc1nccn1C(=O)c2cnn3c(cc(nc23)c4ccccc4)C(F)F], the “S.I. (specificity index)” value was 8.
With N#CC1=C2SCN(Cc3ccco3)CN2C(=O)CC1c1cccc(OCc2ccccc2)c1 (stereo not drawn) [SMDC170136, O=C1CC(C(=C2SCN(Cc3occc3)CN12)C#N)c4cccc(OCc5ccccc5)c4] the “S.I. (specificity index)” value was 13.
In the case of N#CC1=C2SCN(C3CCCCC3)CN2C(=O)CC1c1cccc2ccccc12 (stereo not drawn) [SMDC170156, O=C1CC(C(=C2SCN(CN12)C3CCCCC3)C#N)c4cccc5ccccc45], the “S.I. (specificity index)” value was 8.
COc1cccc(C2CC(=O)N3CN(CCc4sccc4C)CSC3=C2C#N)c1 (stereo not drawn) [SMDC178790, COc1cccc(c1)C2CC(=O)N3CN(CCc4sccc4C)CSC3=C2C#N] was tested, and the “S.I. (specificity index)” value was 50.
In the case of Cc1ccsc1CCN1CSC2=C(C#N)C(c3ccc(Cl)cc3)CC(=O)N2C1 (stereo not drawn) [SMDC178801, Cc1ccsc1CCN2CSC3=C(C#N)C(CC(=O)N3C2)c4ccc(Cl)cc4], the “S.I. (specificity index)” value was 1.7.
In the case of CCOc1ccc(C2CC(=O)N3CN(C(C)c4ccccc4)CSC3=C2C#N)cc1 (stereo not drawn) [SMDC178822, CCOc1ccc(cc1)C2CC(=O)N3CN(CSC3=C2C#N)C(C)c4ccccc4], the “S.I. (specificity index)” value was 3.6.
With “Brc1ccc(cc1)C(=O)c2nocc2C(=O)c3cccnc3 [SMDC112054]” the “S.I. (specificity index)” value was 10.
